In paper PMC12274840 (The Journal of Biological Chemistry, 2025):

System: E. coli KA797 cells carrying BlaC position 105 library
Assay type: cell-based, Escherichia coli
[1] = AA 105 Ala (BlaC I105A), relative to WT Ile
[2] = AA 105 Arg (BlaC I105R), relative to WT Ile
[3] = AA 105 Asn (BlaC I105N), relative to WT Ile
[4] = AA 105 Asp (BlaC I105D), relative to WT Ile
[5] = AA 105 Cys (BlaC I105C), relative to WT Ile
[6] = AA 105 Gln (BlaC I105Q), relative to WT Ile
[7] = AA 105 Glu (BlaC I105E), relative to WT Ile
[8] = AA 105 Gly (BlaC I105G), relative to WT Ile
[9] = AA 105 His (BlaC I105H), relative to WT Ile
[10] = AA 105 Ile (BlaC WT, reference)
[11] = AA 105 Leu (BlaC I105L), relative to WT Ile
[12] = AA 105 Lys (BlaC I105K), relative to WT Ile
[13] = AA 105 Met (BlaC I105M), relative to WT Ile
[14] = AA 105 Phe (BlaC I105F), relative to WT Ile
[15] = AA 105 Pro (BlaC I105P), relative to WT Ile
[16] = AA 105 Ser (BlaC I105S), relative to WT Ile
[17] = AA 105 Thr (BlaC I105T), relative to WT Ile
[18] = AA 105 Trp (BlaC I105W), relative to WT Ile
[19] = AA 105 Tyr (BlaC I105Y), relative to WT Ile
[20] = AA 105 Val (BlaC I105V), relative to WT Ile

CC1(C)[C@H](C(=O)O)N2C(=O)C[C@H]2S1(=O)=O [sulbactam]
Fi, Replicate 1 (relative fitness) [1]: 0.112
Fi, Replicate 2 (relative fitness) [1]: -0.179
Fi, Replicate 3 (relative fitness) [1]: 0.000672
Fi, Replicate 1 (relative fitness) [2]: 0.089
Fi, Replicate 2 (relative fitness) [2]: -0.130
Fi, Replicate 3 (relative fitness) [2]: 0.039
Fi, Replicate 1 (relative fitness) [3]: 0.405
Fi, Replicate 2 (relative fitness) [3]: 0.102
Fi, Replicate 3 (relative fitness) [3]: -0.006
Fi, Replicate 1 (relative fitness) [4]: -0.017
Fi, Replicate 2 (relative fitness) [4]: -0.193
Fi, Replicate 3 (relative fitness) [4]: 0.029
Fi, Replicate 1 (relative fitness) [5]: 0.011
Fi, Replicate 2 (relative fitness) [5]: -0.341
Fi, Replicate 3 (relative fitness) [5]: 0.318
Fi, Replicate 1 (relative fitness) [6]: 0.237
Fi, Replicate 2 (relative fitness) [6]: -0.273
Fi, Replicate 3 (relative fitness) [6]: 0.247
Fi, Replicate 1 (relative fitness) [7]: 0.278
Fi, Replicate 2 (relative fitness) [7]: -0.187
Fi, Replicate 3 (relative fitness) [7]: -0.065
Fi, Replicate 1 (relative fitness) [8]: 0.119
Fi, Replicate 2 (relative fitness) [8]: -0.211
Fi, Replicate 3 (relative fitness) [8]: 0.160
Fi, Replicate 1 (relative fitness) [9]: 0.365
Fi, Replicate 2 (relative fitness) [9]: -0.009
Fi, Replicate 3 (relative fitness) [9]: 0.044
Fi, Replicate 1 (relative fitness) [10]: 0.000
Fi, Replicate 2 (relative fitness) [10]: 0.000
Fi, Replicate 3 (relative fitness) [10]: 0.000
Fi, Replicate 1 (relative fitness) [11]: 0.258
Fi, Replicate 2 (relative fitness) [11]: -0.062
Fi, Replicate 3 (relative fitness) [11]: 0.106
Fi, Replicate 1 (relative fitness) [12]: 0.030
Fi, Replicate 2 (relative fitness) [12]: -0.083
Fi, Replicate 3 (relative fitness) [12]: 0.180
Fi, Replicate 1 (relative fitness) [13]: 0.135
Fi, Replicate 2 (relative fitness) [13]: -0.055
Fi, Replicate 3 (relative fitness) [13]: -0.126
Fi, Replicate 1 (relative fitness) [14]: 0.325
Fi, Replicate 2 (relative fitness) [14]: 0.093
Fi, Replicate 3 (relative fitness) [14]: 0.197
Fi, Replicate 1 (relative fitness) [15]: 0.163
Fi, Replicate 2 (relative fitness) [15]: -0.102
Fi, Replicate 3 (relative fitness) [15]: 0.107
Fi, Replicate 1 (relative fitness) [16]: 0.265
Fi, Replicate 2 (relative fitness) [16]: -0.123
Fi, Replicate 3 (relative fitness) [16]: 0.107
Fi, Replicate 1 (relative fitness) [17]: 0.112
Fi, Replicate 2 (relative fitness) [17]: -0.113
Fi, Replicate 3 (relative fitness) [17]: 0.036
Fi, Replicate 1 (relative fitness) [18]: 0.339
Fi, Replicate 2 (relative fitness) [18]: 0.073
Fi, Replicate 3 (relative fitness) [18]: 0.243
Fi, Replicate 1 (relative fitness) [19]: 0.274
Fi, Replicate 2 (relative fitness) [19]: -0.056
Fi, Replicate 3 (relative fitness) [19]: 0.045
Fi, Replicate 1 (relative fitness) [20]: 0.278
Fi, Replicate 2 (relative fitness) [20]: 0.017
Fi, Replicate 3 (relative fitness) [20]: 0.069

Like-named read-outs stand apart in the source and are kept apart here.
